Source: US20230250134A1 (University of Washington, published 2023)

What was measured:
[1] = target: SARS-COV-2 Spike glycoprotein (SARS-CoV-2, UniProt P0DTC2 14-1208); assay: estimated Kd for Spike (avidity), Table 10
[2] = target: SARS-COV-2 Spike glycoprotein receptor binding domain (RBD) (SARS-CoV-2, UniProt P0DTC2 319-541)

B1: LCB1_v1.3_Mucin (designed binder)
chain: DKENILQKIYEIMKTLEQLGHAEASMQVSDLIYEFMKQGDERLLEEAERLLEEVERGGAKAKAKAKAKAKAKAKAKAK
Kd [1]: 0.1 nM | Kd [2]: 0.2 nM
